# Molecular target: T1, His-AphA (Vibrio parahaemolyticus RIMD 2210633) (UniProt Q87L53)
# T1 sequence: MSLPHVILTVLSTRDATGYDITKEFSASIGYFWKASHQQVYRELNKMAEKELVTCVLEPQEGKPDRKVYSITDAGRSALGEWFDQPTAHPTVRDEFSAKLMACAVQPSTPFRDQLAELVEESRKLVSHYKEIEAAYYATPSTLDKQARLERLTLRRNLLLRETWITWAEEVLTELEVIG
# Assay: EMSA
# Details: dose-dependent, poly(dI-dC); 1 mM MgCl2, 0.5 mM EDTA, 0.5 mM DTT, 50 mM NaCl, 10 mM Tris-HCl pH 7.5, 0.05 mg/ml poly(dI-dC), 10 ul, room temperature 30 min; footprinting in same buffer; recombinant protein; residues 1-179; label: 5'-32P; probe letters rebuilt from the primers and the genome
sequence,measurement,value
TGTGGGTTGAGGTAGGTCGCACGCAAACGATCACCTAATCTTACGGCGTGTAGTGTATCACCACGAAGAGTGGGTTGAAAGTCACATCCTTTTGCGGAAAATTCTTGGGAGCGCTGCCAAATTTTCGAAAGTTTACAGCAAAACTTATCAATAATAATGACATTACTGTCTATAAATTATCCATCAGATGTTGACCTTGTGCATATGCACCATTACACTCATCACTGCTTAAAGCAATTATTAAAATAATCAATTAGGGGGTTACCCCCAACAACAACTCAAATGGCAAGGAAAATGGATATGGACTCAATTGCAAAGAGACCTAGAACTAGGC (double strand) [opaR promoter fragment (EMSA)],binding result,binds
